From patent US20240208984A1, “BIVALENT LIGANDS TO UNDERSTAND DIMERIZATION OF THE MU OPIOID RECEPTOR AND THE CHEMOKINE RECEPTOR CCR5 IN NEUROLOGICAL DISORDERS” (priority 2021, published 2024)

Tested on: HIV-1BaL
Assay: Anti-HIV-1BaL activity (reverse transcriptase activity) in GHOST CCR5 cells
Conditions: read-out: Inhibition of HIV-1BaL EC50, RT activity, triplicate

In the case of `CNC(=O)COCC(=O)NCCCCCCCNC(=O)COCC(=O)N[C@@H]1CC[C@@]2(O)[C@H]3Cc4ccc(O)c5c4[C@@]2(CCN3CC2CC2)[C@H]1O5` (single isomer, unassigned), the EC50 is reported as over 100 µM.
